Compound potency records, mixed from different reports. Data source: NIAID ChemDB in PubChem.

Shared fields: growth or infection tests; species: Mycobacterium tuberculosis

MIC bound: limit read from a one-dose screen.

| compound | dose | method | strain or isolate | cells | measure | result |
|---|---|---|---|---|---|---|
| CC(=O)NC[C@H]1CN(c2ccc(N3CCSCC3)c(F)c2)C(=O)O1 | - | - | 91-2225 | - | MIC | 0.5 µg/mL |
| CNC(=S)N(c1ccc(F)c(Cl)c1)C(C)c1cccs1 | 1000 µg/mL | visual reading | - | - | zone | 13.84 mm |
| Cc1[nH]n(CCO)c(=O)c1N=Nc1ccc(-c2n[nH]c(=O)n2-c2ccccc2)cc1 | 12.5 µg/mL | - | H37Rv | - | inhibition | 0% |
| CC(CN(C)C)CN1c2ccccc2S(=O)(=O)c2ccc(Cl)cc21 | - | - | H37Rv | - | MIC | 256 µg/mL |
| Nc1cc2nc3ccccc3sc-2cc1=O | - | BACTEC | H37Rv | - | MIC | 0.2 µg/mL |
| O=C(Nc1ccc(F)cc1)c1ncccc1O | - | - | CNCTC MY 331/8 | - | MIC | 125 µM |
| Cc1oc2c(c1C(=O)c1ccccc1)C(=O)c1ccccc1C2=O | 12.5 µg/mL | BACTEC | H37Rv | - | inhibition | -15% |
| CC(CN(C)C)CN1c2ccccc2Sc2ccc(Cl)cc21 | - | - | H37Rv | - | MIC | 16 µg/mL |
| Cc1cc(=O)n2[nH]c(Nc3ccccc3)c(C(=O)Nc3ccccc3)c2n1 | - | resazurin | H37Rv | - | MIC | 50 µg/mL |
| CC(C)(C)c1cc(C(C)(C)C)c2oc(-c3ccccc3O)nc2c1 | 6.25 µg/mL | BACTEC | H37Rv | - | inhibition | 70% |
| O=C1C=C(Nc2ccccc2)c2ccccc2C1=O | - | resazurin | H37Rv | - | MIC bound | <6.25 µg/mL |
| Cc1ccc(NC(=O)c2c(Nc3ccc(Cl)cc3)[nH]n3c(=O)cc(C)nc23)cc1 | - | resazurin | H37Rv | - | MIC | 3.12 µg/mL |
| CCOC(=O)NCCCc1ccc2oc3ccccc3c2c1 | - | BACTEC | H37Rv | - | MIC bound | >12.5 µg/mL |
| CC(C)(C)c1cc(C(C)(C)C)c2oc(/C=C/c3ccccc3)nc2c1 | 6.25 µg/mL | BACTEC | H37Rv | - | inhibition | 100% |
| CCCCNc1ccc2nnc(C)n2n1 | - | BACTEC | H37Rv | - | MIC bound | >12.5 µg/mL |
| CO[C@H]1/C=C/O[C@@]2(C)Oc3c(C)c(O)c4c(O)c(c5c(c4c3C2=O)NC2(CCN(CC(C)C)CC2)N=5)=NC(=O)/C(C)=C\C=C\[C@H](C)[C@H](O)[C@@H](C)[C@@H](O)[C@@H](C)[C@H](OC(C)=O)[C@@H]1C | - | - | Isolate 900233 drug-susceptible | - | MIC | 0.125 µg/mL |
| c1ccc2c(c1)nc1cc(NC3CCCCC3)c(=NC3CCCCC3)cc-1n2C1CCCCC1 | - | - | RMP-R | - | MIC | 3.1 µg/mL |
| C#CCn1ncc2c(SCc3ccccc3)ncnc21 | - | BACTEC | H37Rv | - | EC50 | <12.5 µM |
| CC(C)CC1NC(=O)C(CC(C)C)N(CO)C1=O | 12.5 µg/mL | BACTEC | H37Rv | - | inhibition | 2% |
| CN1CCN(CCOc2cc(Nc3cc(C4CC4)[nH]n3)nc(-c3ccccc3)n2)CC1 | - | resazurin | H37Rv | - | MIC90 | 64 µM |
| c1ccc([Si]2(c3ccccc3)[Si](c3ccccc3)(c3ccccc3)[Si](c3ccccc3)(c3ccccc3)[Si]2(c2ccccc2)c2ccccc2)cc1 | - | BACTEC | H37Rv | - | MIC bound | >12.5 µg/mL |
| Cc1[nH]n(-c2ccccc2)c(=O)c1N=Nc1ccc(-c2n[nH]c(=S)o2)cc1 | - | - | H37Rv | - | MIC | <12.5 µg/mL |
| C/C=C(\Oc1cccc(C(=O)OC)c1O)C(=O)OC | - | resazurin | - | - | EC50 | 792 µM |
| CC(C)[C@H]1CC[C@H]2[C@@H]3C=C[C@]4(C)CC[C@@]3(CC[C@]12CO)CO4 | - | visual reading / absorbance | H37Rv | - | MBC | 20.5 µM |
| CCOc1ccc(NC(=O)c2c(Nc3ccc(C)cc3C)[nH]n3c(=O)cc(C)nc23)cc1 | - | resazurin | H37Rv | - | MIC | 50 µg/mL |
| CCC(C)N(C(=S)Nc1ccccc1)c1ccc(F)c(Cl)c1 | 1000 µg/mL | visual reading | - | - | zone | 11.04 mm |
| NNC(=O)c1ccccc1 | - | - | Mtb 5 | - | MIC | 4 µg/mL |
| Cc1[nH]n(CCO)c(=O)c1N=Nc1ccc(-c2n[nH]c(=S)n2-c2ccccc2)cc1 | - | - | H37Rv | - | MIC | >12.5 µg/mL |
| C=O.O=S1c2ccccc2N(CCN2CCCC2)c2ccccc21 | 12.5 µg/mL | BACTEC | H37Rv | - | inhibition | -6% |
| O=c1oc2ccccc2c(=O)n1-c1ccccc1 | - | - | CNCTC MY331/88 | - | MIC | 125 µM |
| Cc1ccc(Nc2nc(C)c(C(/C=C/c3ccc(/C=C/C(=N\NC(=O)C[n+]4ccccc4)c4sc(Nc5ccc(C)cc5[N+](=O)[O-])nc4C)cc3)=N/NC(=O)C[n+]3ccccc3)s2)c([N+](=O)[O-])c1.[Cl-] | 12.5 µg/mL | BACTEC | H37Rv | - | inhibition | 35% |
| CCOC(=O)c1c(C)c(-c2ccc(Cl)cc2)n(CC(=O)N/N=C/c2ccc([N+](=O)[O-])cc2O)c1C | 6.25 µg/mL | resazurin | H37Rv (ATCC 27294) | - | inhibition | 77% |
| COC(=O)/C(=C\c1ccc(Br)cc1)Oc1cccc(C(=O)OC)c1O | - | resazurin | - | - | EC50 | 188 µM |
| CCOC(=O)NC(=S)c1ccc[nH]1 | 6.25 µg/mL | resazurin | H37Rv | - | inhibition | 53% |
| CC(CN1c2ccccc2Sc2ccc(Cl)cc21)N(C)C | - | - | H37Rv | - | MIC | 256 µg/mL |
| CCOC(=O)c1c(C)[nH]c(/C=N/NC(=O)Cn2c(C)c(C(=O)OCC)c(C)c2-c2ccc(Cl)cc2)c1C | - | resazurin | H37Rv (ATCC 27294) | - | EC50 | 7.979 µg/mL |
| COC(=O)/C(=C\c1cccc(Br)c1)Oc1cccc(C(=O)OC)c1O | - | resazurin | - | - | EC50 | 248 µM |
| c1ccc(-c2nc(NCCc3cnc[nH]3)cc(Nc3cc(C4CC4)[nH]n3)n2)cc1 | - | - | H37Rv | - | MIC99 | >20 µM |
| Cc1ccc(NC(=O)c2ccco2)cc1Cl | - | BACTEC | H37Rv | VERO | MIC | 6.25 µg/mL |
| Cc1[nH][nH]c(=O)c1N=Nc1ccc(-c2n[nH]c(=S)n2-c2ccccc2)cc1 | - | - | H37Rv | - | MIC | >12.5 µg/mL |
| CN(C)[C@@H]1CCN(c2cc(Nc3cc(C(=O)NC4CC4)ccn3)nc(-c3ccccc3)n2)C1 | - | resazurin | H37Rv | - | MIC90 | 64 µM |
| CC(C)[C@H]1CC[C@H]2[C@@H]3C=C[C@]4(C)CC[C@@]3(CC[C@]12C(=O)O)CO4 | - | visual reading / absorbance | H37Rv | - | MBC | 314 µM |
| CCOC(=O)c1cc(-c2ccc(Cl)cc2)n(CC(=O)N/N=C/c2ccc(O)c(OCC)c2)c1C | 6.25 µg/mL | resazurin | H37Rv (ATCC 27294) | - | inhibition | 55% |
| CC(C)(C)c1cc(C(C)(C)C)c2oc(-c3c[nH]c4ccccc34)nc2c1 | 6.25 µg/mL | BACTEC | H37Rv | - | inhibition | <90% |
| Fc1ccc(N(C(=S)Nc2ccccc2)C2CCCCC2)cc1Cl | 1000 µg/mL | visual reading | - | - | zone | 11.15 mm |
| CCOC(=O)c1cc(-c2ccc(C)cc2)n(C(C)C(=O)N=Nc2c(O)[nH]c3ccccc23)c1C | 6.25 µg/mL | resazurin | H37Rv (ATCC 27294) | - | inhibition | 0% |
| Cc1[nH][nH]c(=O)c1N=Nc1ccc(-c2n[nH]c(=O)n2-c2ccccc2)cc1 | - | - | H37Rv | - | MIC | >12.5 µg/mL |
| O=C(NCc1ccccc1)c1ncccc1S | - | - | CNCTC MY 331/8 | - | MIC | 8 µM |
| CC(C)(CNC(=O)C1CCC1)CNc1nc(Nc2cccc(CN3CCCC3)c2)ncc1Br | - | resazurin | H37Rv | - | MIC90 | 64 µM |
| O=c1oc2ccc(Br)cc2c(=O)n1-c1ccc(Cl)cc1 | - | - | CNCTC MY331/88 | - | MIC | 8 µM |
| O=C(Nc1ccc(C(F)(F)F)cc1)c1ncccc1O | - | - | CNCTC MY 331/8 | - | MIC | 32 µM |
| COc1ccc(-c2cc(=O)c3ccc4c(O)cccc4c3o2)cc1 | - | BACTEC | H37Rv | - | MIC bound | >12.8 µg/mL |
| COC(=O)/C(=C\c1cccc(C)c1)Oc1cccc(C(=O)OC)c1O | - | resazurin | - | - | EC50 | 263 µM |
| Cc1cccc(-c2nc3cc(C(C)(C)C)cc(C(C)(C)C)c3o2)c1 | 6.25 µg/mL | BACTEC | H37Rv | - | inhibition | <90% |
| C/C=C(\C)C(=O)N/N=C/c1cccnc1 | - | BACTEC | H37Rv | - | MIC bound | >12.5 µg/mL |
| CCOC(=O)c1cc(-c2ccc(C)cc2)n(C(C)C(=O)N/N=C/c2ccco2)c1C | 6.25 µg/mL | resazurin | H37Rv (ATCC 27294) | - | inhibition | 0% |
| Cc1cc(NS(=O)(=O)c2ccc(N=Nc3c(O)n(-c4ccccc4)n(-c4ccccc4)c3=O)cc2)no1 | - | BACTEC | H37Rv | - | MIC bound | >12.8 µg/mL |
| CC(=O)OC[C@]12CC[C@@]3(C)CC=C(C)C=C[C@H]3[C@@H]1CC[C@@H]2C(C)C | - | visual reading / absorbance | H37Rv | - | MIC | 151.3 µM |
| CN(C)c1ccc(-c2nc3cc(C(C)(C)C)cc(C(C)(C)C)c3o2)cc1 | 6.25 µg/mL | BACTEC | H37Rv | - | inhibition | 54% |
| Cc1nc(C)c(C(=O)NNC(=O)Cc2ccccc2)cc1C(=O)NNC(=O)Cc1ccccc1 | - | BACTEC | H37Rv | - | MIC bound | >12.5 µg/mL |
| COC(=O)/C(=C\c1ccccc1C)Oc1cccc(C(=O)OC)c1O | - | resazurin | - | - | EC50 | 140 µM |
| CC(CN1c2ccccc2Sc2ccccc21)N(C)C | - | - | H37Rv | - | MIC | 32 µg/mL |
| CCc1c(Cl)c(OCCCCCCCOCCn2cc(CN3CCN(/N=C/c4c5c(O)c6c(O)c(C)c7c(c6c4O)C(=O)[C@@](C)(O/C=C/[C@H](OC)[C@@H](C)[C@@H](OC(C)=O)[C@H](C)[C@H](O)[C@H](C)[C@@H](O)[C@@H](C)/C=C/C=C(/C)C(=O)N5)O7)CC3)nn2)c(Cl)c(O)c1C(=O)OC1C(C)OC(OC/C2=C\C=C\C[C@H](O)/C(C)=C/[C@H](CC)[C@H](OC3OC(C)(C)C(OC(=O)C(C)C)C(O)C3O)/C(C)=C/C(C)=C/C[C@@H]([C@@H](C)O)OC2=O)C(OC)C1O | - | visual reading | H37Ra | - | MIC | 0.5 µg/mL |
| CSC(=S)N/N=C\C(O)C(O)C(O)C(O)CO | - | BACTEC | H37Rv | - | MIC bound | ≤128 µg/mL |
| CNC(=S)N(Cc1ccco1)c1ccc(F)c(Cl)c1 | - | visual reading | - | - | MIC | 400 µg/mL |
| CC(C)(C)c1cc(C(C)(C)C)c2oc(-c3ccsc3)nc2c1 | 6.25 µg/mL | BACTEC | H37Rv | - | inhibition | <90% |
| Cc1ccc2c(=O)n(-c3cccc(Cl)c3)c(=O)oc2c1 | - | - | CNCTC MY331/88 | - | MIC | 16 µM |
| COC(=O)/C(=C\c1cccc(OC(C)=O)c1)Oc1cccc(C(=O)OC)c1O | - | resazurin | - | - | EC50 | 460 µM |
| CC1=C2N3C[C@@H](n4c(=O)n(C)c(=O)n43)[C@@]23CC[C@@H]1n1c(=O)n(C)c(=O)n13 | - | BACTEC | H37Rv | - | MIC bound | >12.5 µg/mL |
| CC1=CC[C@]2(C)CC[C@]3(CO)[C@@H](C(C)C)CC[C@H]3[C@@H]2C=C1 | - | visual reading / absorbance | H37Rv | - | MBC | 5.4 µM |
| O=C(Nc1ccc(C(F)(F)F)cc1)c1ccccc1O | - | - | CNCTC MY 331/8 | - | MIC | 8 µM |
| Cc1ccc(NC(=O)/C(CC(=O)c2sc(Nc3ccccc3Cl)nc2C)=N\Nc2ccc([N+](=O)[O-])cc2[N+](=O)[O-])c(C)c1 | - | resazurin | H37Rv | - | MIC bound | >6.25 µg/mL |
| COC(=O)/C(=C\c1ccccc1C(F)(F)F)Oc1cccc(C(=O)OC)c1O | - | resazurin | - | - | EC50 | 25 µM |
| CCc1cc(C(N)=S)ccn1 | - | - | 2 lab strains (TH1314-susceptible) | - | MIC | 2.5 µg/mL |
| COC(=O)/C(=C\c1ccc(OC(C)=O)cc1)Oc1cccc(C(=O)OC)c1O | - | resazurin | - | - | EC50 | 120 µM |
| CN(C)CCCOc1cc(Nc2cc(C3CC3)[nH]n2)nc(-c2ccccc2)n1 | - | resazurin | H37Rv | - | MIC90 | 32 µM |
| O=c1oc2ccc(Br)cc2c(=O)n1-c1ccccc1 | - | - | CNCTC MY331/88 | - | MIC | 31 µM |
| CC(C)(C)c1cc(C(C)(C)C)c2oc(-c3ccncc3)nc2c1 | - | BACTEC | H37Rv | - | MIC | 6.25 µg/mL |
| CC1=CC(=O)Nc2ccccc2S1 | 12.5 µg/mL | BACTEC | H37Rv | - | inhibition | 0% |
| CN(C)[C@@H]1CCN(c2cc(Nc3cc(C4CC4)[nH]n3)nc(-c3ccccc3)n2)C1 | - | - | H37Rv | - | MIC99 | 5 µM |

Repeating the first 5 entries:

compound,dose,method,strain or isolate,cells,measure,result
CC(=O)NC[C@H]1CN(c2ccc(N3CCSCC3)c(F)c2)C(=O)O1,-,-,91-2225,-,MIC,0.5 µg/mL
CNC(=S)N(c1ccc(F)c(Cl)c1)C(C)c1cccs1,1000 µg/mL,visual reading,-,-,zone,13.84 mm
Cc1[nH]n(CCO)c(=O)c1N=Nc1ccc(-c2n[nH]c(=O)n2-c2ccccc2)cc1,12.5 µg/mL,-,H37Rv,-,inhibition,0%
CC(CN(C)C)CN1c2ccccc2S(=O)(=O)c2ccc(Cl)cc21,-,-,H37Rv,-,MIC,256 µg/mL
Nc1cc2nc3ccccc3sc-2cc1=O,-,BACTEC,H37Rv,-,MIC,0.2 µg/mL

Blank or dashed fields: not listed here. Percent inhibition refers to the dose given; in toxicity tests it is the harm to the cells. A number after MIC or MFC names an inhibition level or a share of isolates. Zone: diameter of growth inhibition. ECn: concentration that inhibits the pathogen or its effect by n%. Conditions beyond the fields shown may differ between rows.